A mixed list of measured activities; the numbers were collected in NIAID ChemDB.

Shared fields: tests in culture; organism: Mycobacterium tuberculosis

ECn is the concentration giving n% inhibition of infection, replication or growth.

SMILES	read by	conditions	strain or isolate	dose	changes	measure	cells	value
COc1ccc2c(=O)n(-c3ccc(C(F)(F)F)cc3)c(=O)oc2c1			CNCTC MY331/88			MIC		16 µM
Cc1nc(N)sc1C	BACTEC		H37Rv	6.25 µg/mL		inhibition		0%
C/C=C1/C(=O)O[C@]23C=C[C@@H]4C(C(=O)OC)=CO[C@H](O[C@@H]12)[C@@H]43	MTT		MDR3 clinical isolate			MIC		1.5 µg/mL
CCOC(=O)c1ccc2c(c1)nc(-c1ccc(N(C)C)cc1)n2CCN1CCCOC1	resazurin / fluorescence		H37Rv			EC90		>100 µM
CC(C)(C)C(=O)Nc1nc(-c2ccccn2)cs1	visual reading		H37Rv			MIC		2.8 µM
CCCCc1ncc(C(N)=O)nc1SCCC			H37Rv			MIC		>12.5 µg/mL
Cc1cc(C)c(C(=O)NN)[nH]1	BACTEC		H37Rv	6.25 µg/mL		inhibition		21%
CCc1nc2ccccc2n1CCCCOc1ccccc1	turbidity / fluorescence		H37Rv		Rv1339 V90M	fold resistance		0.4
CC1(C)CC[C@]2(C(=O)O)CC[C@]3(C)C(=CCC4[C@@]5(C)CC[C@H](O)C(C)(C)C5CC[C@]43C)C2C1			H37Rv (isoniazid-resistant)			MIC		50 µg/mL
COc1cc(-c2cc(=O)c3c(OC)c(OC)c(OC)c(OC)c3o2)cc(OC)c1OC	BACTEC		H37Rv			MIC bound		>12.5 µg/mL
O=C(NCc1ccc(Br)cc1)c1ccc(Br)cc1O			My 331/88			MIC		16 µg/mL
O=C(NN1C(=O)CSC1c1ccc(F)cc1)c1ccncc1			H37Rv			MIC		>5 µg/mL
CCOC(=O)c1cn(C)c2c(cc([N+](=O)[O-])c3cccnc32)c1=O			H37Rv		gyrA mutation A90V	MIC90		>50 µM
O=C(Nc1ccc2oc3ccc(Cl)cc3c(=O)c2c1)c1ccc(Cl)cc1Cl	BACTEC		H37Rv	12.5 µg/mL		inhibition		41%
CCCCn1c(-c2ccc(OC)cc2)cs/c1=N\N=C1/C(=O)Nc2ccccc21			H37Rv	12 µg/mL		inhibition		49%
CC(=O)Nc1ccc(/C=N/NC(N)=S)cc1			Isolate A drug-susceptible			MBC		30 µg/mL
O=c1oc2ccccc2c(=O)n1-c1cccc([N+](=O)[O-])c1			CNCTC MY331/88			MIC		31 µM
CC1COc2c(N3CCN(C)CC3)c(F)cc3c(=O)c(C(=O)O)cn1c23			9 isolates (RMP INH-S)			MIC90		2 µg/mL
COc1cc(OC)c2cc([N+](=O)[O-])c3ccc(=O)oc3c2c1	resazurin		H37RvRr			MIC		50 µg/mL
O=C(CO)Nc1nc(-c2ccccn2)cs1	visual reading		H37Rv			MIC		>20 µM
Cc1cc(O)c2c(c1)C(=O)C(c1c(C)cc3c(c1O)C(=O)C=CC3=O)=CC2=O	broth dilution		H37Ra ATCC 25177			MBC		32 µg/mL
COc1cc2c(c(OC)c1O)-c1ccc(OC)c(=O)cc1[C@@H](NC(=O)C(F)(F)F)CC2	BACTEC		H37Rv			MIC		≥12.5 µg/mL
Cc1ccc2c(c1)[n+](=O)c(C(=O)N1CCN(c3ccccc3)CC1)c(C)n2[O-]			H37Rv	6.25 µg/mL		inhibition		0%
N[C@@H]1CONC1=O	resazurin / fluorescence		H37Rv			EC50		24.76 µM
C/C(=N\N)c1c(C)[nH]c(C(=O)NN)c1C	BACTEC		H37Rv			EC50		>6.25 µg/mL
O=C(Nc1nc(-c2ccccn2)cs1)C1CC1	visual reading		H37Rv			MIC		>20 µM
CC1=CC(=O)c2c(O)cccc2C1=O	broth dilution		H37Ra ATCC 25177			MIC		8 µg/mL
O=C(CSc1nc(-c2ccccc2)c(-c2ccccc2)[nH]1)N=Nc1c(O)[nH]c2ccc(Br)cc12			H37Rv			MIC		>12.5 µg/mL
CCOC(=O)c1cc(-c2ccccc2)n(CC(=O)N/N=C/c2cn(C(C)=O)c3ccccc23)c1C	BACTEC		H37Rv			EC50		>6.25 µg/mL
Cc1ccc(-n2c(=O)oc3ccc(Cl)cc3c2=O)cc1			CNCTC MY331/88			MIC		16 µM
CO[C@H]1/C=C/O[C@@]2(C)Oc3c(C)c(O)c4c(O)c(c5c(c4c3C2=O)NC2(CCN(CC(C)C)CC2)N=5)=NC(=O)/C(C)=C\C=C\[C@H](C)[C@H](O)[C@@H](C)[C@@H](O)[C@@H](C)[C@H](OC(C)=O)[C@@H]1C			MDR-1 (MDR)			MIC		>1.6 µg/mL
C=CCN(CC=C)C1C(O)CCOC1OC	BACTEC		H37Rv			MIC bound		>12.5 µg/mL
CCOC(=O)c1cc(-c2ccc([N+](=O)[O-])cc2)n(CC(=O)NN)c1C	BACTEC		H37Rv			EC50		>6.25 µg/mL
CCOC(=O)c1ccc2nc(-c3ccc(O)cc3O)[nH]c2c1	resazurin / fluorescence		H37Rv			EC90		>100 µM
CC1S/C(=N/N=C2\C(=O)Nc3ccccc32)N(C2CCCCC2)C1=O			H37Rv			MIC		>12.5 µg/mL
C[N+](C)(C)[N-]C(=N)c1ccccc1	BACTEC		H37Rv			MIC		≥12.5 µg/mL
CCCCSc1nc(C(N)=S)cnc1CCC			H37Rv			MIC		>12.5 µg/mL
Cc1c[nH]c(C)c1C(=O)NN	BACTEC		H37Rv			EC50		>6.25 µg/mL
CSc1nc(C(N)=S)cnc1CC(C)C			H37Rv	12.5 µg/mL		inhibition		<90%
CCc1nc2ccc(C)cc2n1CCCCSc1ccc(Cl)cc1	turbidity / fluorescence		H37Rv		QcrB M342T	fold resistance		>6.3
COc1ccc(N2CCN(C(=O)c3c(C)n([O-])c4cc(Cl)c(Cl)cc4[n+]3=O)CC2)cc1			H37Rv			MIC		>6.25 µg/mL
COc1ccc2cc([N+](=O)[O-])c3ccc(=O)oc3c2c1	resazurin		H37RvRr			MIC		50 µg/mL
COc1c2c(c3c(c1CCC(=O)O)OC(C)(C)C=C3)OC(C)(C)C=C2	BACTEC		H37Rv	12.5 µg/mL		inhibition		25%
C[C@]1(COc2ccc(N3CCC(Oc4ccc(OC(F)(F)F)cc4)CC3)cc2)Cn2cc([N+](=O)[O-])nc2O1			UT30			MIC		0.024 µg/mL
CCCCc1ncc(C(N)=O)nc1SCC			H37Rv			MIC		>12.5 µg/mL
O=[N+]([O-])c1ccc(C2=NOC(c3ccc(N4CCN(Cc5ccccc5)CC4)cc3)C2)o1			CDC1551			MIC		0.012 µg/mL
CC(=O)Oc1ccc2c(c1)C(=O)CCCCCC(=O)O2	BACTEC		H37Rv			MIC		≥12.5 µg/mL
O=C(NCc1cccc(Br)c1)c1ccc(Br)cc1O			My 331/88			MIC		32 µg/mL
Cc1c(C(=O)Nc2ccccc2)[n+](=O)c2cc(Cl)c(Cl)cc2n1[O-]			H37Rv	6.25 µg/mL		inhibition	VERO	100%
Cc1ccc(N2C(=O)C(C)S/C2=N/N=C2\C(=O)Nc3ccc(Br)cc32)cc1			H37Rv			MIC		>12.5 µg/mL
Cc1ccc(O)c(C(=O)NCc2cccc([N+](=O)[O-])c2)c1			My 331/88			MIC		62.5 µg/mL
O=C(Nc1ccn(-c2ccccn2)n1)NC1CCCC1	visual reading		H37Rv			MIC		>20 µM
O=C(O)c1c(Cl)c(Cl)c(Cl)c(Cl)c1C(=O)Nc1ncc([N+](=O)[O-])s1	BACTEC		H37Rv			MIC bound		>12.5 µg/mL
C=CCNC(=S)N=Nc1c(O)[nH]c2ccccc12			H37Rv			EC50		>12 µg/mL
NC(=O)c1cnccn1		7 d	TB213			EC50		<800 µg/mL
CCN(CCCl)c1cc(C(=O)Nc2cc(NC(=O)c3cc(N(CC)CCCl)c([N+](=O)[O-])cc3[N+](=O)[O-])cc(C(=O)NCCN(C)C)c2)c([N+](=O)[O-])cc1[N+](=O)[O-]	resazurin		H37Rv	6.25 µg/mL		inhibition		10%
C=CCn1c(C)c(C(=O)O)s/c1=N\N=C1/C(=O)Nc2ccccc21			H37Rv			MIC		>12.5 µg/mL
CCOC(=O)c1ccc2[nH]c(-c3ccc(S(=O)(=O)F)cc3)cc(=O)c2c1	BACTEC		H37Rv	12.5 µg/mL		inhibition		-8%
CCc1nc2ccccc2n1CCCCOc1ccc(C)c(C)c1	turbidity / fluorescence		H37Rv		WT	MIC90		5 µM
CCOC(=O)c1ccc2nc(-c3ccc(C(F)(F)F)cc3)[nH]c2c1	resazurin / fluorescence		H37Rv			EC50		>100 µM
CCN(CC)CCOC(=O)c1ccc(N=NC2Sc3nc4ccccc4n3C2=O)cc1.Cl	BACTEC		H37Rv			MIC bound		>12.8 µg/mL
CCOC(=O)c1ccc2c(c1)nc(-c1ccc(Cl)cc1)n2CCN1CCCC1=O	resazurin / fluorescence		H37Rv			EC50		>100 µM
COc1ccc2c(c1)[n+](=O)c(C(=O)N1CCN(c3ccc([N+](=O)[O-])cc3)CC1)c(C)n2[O-]			H37Rv	6.25 µg/mL		inhibition		0%
O=C(NN1C(=O)CS(=O)(=O)C1c1ccccc1F)c1ccncc1			16PI			MIC		>5 µg/mL
Nc1ccn([C@@H]2O[C@H](C(O[C@@H]3O[C@H](CO)[C@@H](O)[C@H](N)[C@H]3O)[C@@H](O)[C@@H](O)[C@@H](O)[C@@H](O)CO)[C@@H](N)[C@H](O)[C@H]2O)c(=O)n1			EMB-R			MIC		12.5 µg/mL
CCOC(=O)c1ccc2c(c1)nc(-c1ccc([N+](=O)[O-])cc1)n2CCN1CCCC1=O	resazurin / fluorescence		H37Rv			MIC		>100 µM
COc1ccc2oc(=O)n(-c3ccc([N+](=O)[O-])cc3)c(=O)c2c1			CNCTC MY331/88			MIC		32 µM
COc1ccc(C(=S)NCc2ccccc2)c(O)c1			My 331/88			MIC		4 µg/mL
O=NN1C(c2ccccc2)CC(=NO)CC1c1ccccc1	resazurin		H37Rv	6.25 µg/mL		inhibition		29%
CC[C@H]1OC(=O)[C@H](C)[C@@H](O[C@H]2C[C@@](C)(OC)[C@@H](O)[C@H](C)O2)[C@H](C)[C@@H](O[C@@H]2O[C@H](C)C[C@H](N(C)C)[C@H]2O)[C@](C)(OC)C[C@@H](C)C(=O)[C@H](C)[C@@H](O)[C@]1(C)O			MDR-2037 (MDR)			MIC		8 µg/mL
O=C(NN1C(=O)CS(=O)(=O)C1c1ccc(Cl)cc1Cl)c1ccncc1			16PI			MIC		>5 µg/mL
Cl.O=C(O)c1cc(N=C=S)ccc1-c1c2ccc(=O)cc-2oc2cc(O)ccc12	BACTEC		H37Rv	12.5 µg/mL		inhibition		3%
CCOC(=O)c1ccc2c(c1)nc(-c1ccc(OC(F)(F)F)cc1)n2CCN1CCCC1=O	resazurin / fluorescence		H37Rv			EC50		>100 µM
CCCCc1ncc(C(N)=O)nc1SC			H37Rv			MIC		>12.5 µg/mL
CCOC(=O)c1ccc2nc(-c3ccc(OC(F)(F)F)cc3)[nH]c2c1	resazurin / fluorescence		H37Rv			MIC		>100 µM
COc1cc2ccccc2c2cc([N+](=O)[O-])oc12	resazurin		H37Rv			MIC		0.1 µg/mL
CCOC(=O)c1cc(-c2ccc(C)cc2)n(CC(=O)NN)c1C	BACTEC		H37Rv	6.25 µg/mL		inhibition		16%
CC(=O)OC1COC(Nc2nc(NCc3ccccc3)n(C)c(=O)c2N=O)C(OC(C)=O)C1OC(C)=O	BACTEC		H37Rv	12.5 µg/mL		inhibition		0%
CCOC(=O)c1cn(CC)c2c(cc([N+](=O)[O-])c3cccnc32)c1=O			H37Rv		gyrA mutation A90V gyrB mutation Q540V	MIC90		>50 µM
CCc1nc2ccc(C)cc2n1CCCSc1ccc(OC)cc1	turbidity / fluorescence		H37Rv		QcrB M342T	MIC90		98 µM
CCCCc1ncc(C(N)=S)nc1SCC			H37Rv			MIC		>12.5 µg/mL
O=C1C2=C(Nc3ccccc3N2)OC1c1ccccc1O	BACTEC		H37Rv			MIC bound		>12.5 µg/mL
COc1ccc(/C=N/NC(=O)c2c(C)c[nH]c2C)cc1	BACTEC		H37Rv			EC50		>6.25 µg/mL
CCC1CN2CCc3cc(OC)c(OC)cc3[C@@H]2C[C@@H]1C[C@@H]1c2cc(OC)c(OC)cc2CCN1C(=O)[C@H](Cc1c[nH]c2ccccc12)NC(=O)OC(C)(C)C	BACTEC		H37Rv	12.5 µg/mL		inhibition		12%
C[N+](C)(C)C(=O)Nc1nc(-c2ccccn2)cs1	visual reading		H37Rv			MIC		>20 µM
O=[N+]([O-])c1cn2c(n1)OC[C@@H](OCc1ccc(OC(F)(F)F)cc1)C2			UT29			MIC		0.024 µg/mL
Cc1c(C(=O)NC(C)(C)C)[n+](=O)c2cc(Cl)ccc2n1[O-]			H37Rv	6.25 µg/mL		inhibition		51%
Cc1nc2c(cc1C(=O)NN)c(=O)n(C)c(=O)n2C	resazurin		H37Rv			MIC bound		>6.25 µg/mL
CCSc1nc(C(N)=O)cnc1C(C)(C)C			H37Rv	12.5 µg/mL		inhibition		<90%

The last 7 rows once more:

{"SMILES": "COc1ccc(/C=N/NC(=O)c2c(C)c[nH]c2C)cc1", "read by": "BACTEC", "strain or isolate": "H37Rv", "measure": "EC50", "value": ">6.25 µg/mL"}
{"SMILES": "CCC1CN2CCc3cc(OC)c(OC)cc3[C@@H]2C[C@@H]1C[C@@H]1c2cc(OC)c(OC)cc2CCN1C(=O)[C@H](Cc1c[nH]c2ccccc12)NC(=O)OC(C)(C)C", "read by": "BACTEC", "strain or isolate": "H37Rv", "dose": "12.5 µg/mL", "measure": "inhibition", "value": "12%"}
{"SMILES": "C[N+](C)(C)C(=O)Nc1nc(-c2ccccn2)cs1", "read by": "visual reading", "strain or isolate": "H37Rv", "measure": "MIC", "value": ">20 µM"}
{"SMILES": "O=[N+]([O-])c1cn2c(n1)OC[C@@H](OCc1ccc(OC(F)(F)F)cc1)C2", "strain or isolate": "UT29", "measure": "MIC", "value": "0.024 µg/mL"}
{"SMILES": "Cc1c(C(=O)NC(C)(C)C)[n+](=O)c2cc(Cl)ccc2n1[O-]", "strain or isolate": "H37Rv", "dose": "6.25 µg/mL", "measure": "inhibition", "value": "51%"}
{"SMILES": "Cc1nc2c(cc1C(=O)NN)c(=O)n(C)c(=O)n2C", "read by": "resazurin", "strain or isolate": "H37Rv", "measure": "MIC bound", "value": ">6.25 µg/mL"}
{"SMILES": "CCSc1nc(C(N)=O)cnc1C(C)(C)C", "strain or isolate": "H37Rv", "dose": "12.5 µg/mL", "measure": "inhibition", "value": "<90%"}

Percent inhibition refers to the dose given; in toxicity tests it is the harm to the cells. MIC bound: limit read from a one-dose screen. Neighbouring rows are from separate reports. MIC50, MIC90 and the like: level of inhibition, or share of isolates inhibited. Blank or dashed fields: not listed here. Fold resistance: result on the changed form divided by that on wild type.